Compound potency records, mixed from different reports. Data source: NIAID ChemDB in PubChem.

All rows: growth or infection tests; species: Varicella zoster virus; cells: HEL; endpoint: EC50

Neighbouring rows are from separate reports.

SMILES,method,strain or isolate,result
O=c1[nH]c(=O)n([C@H]2C[C@H](O)[C@@H](CO)O2)cc1-c1ccc(Br)s1,plaque count,YS (TK+),0.108 µM
CC1(C)[C@@H](CO)CC[C@@]1(C)Cn1ccc(=O)[nH]c1=O,cytopathic effect,YS/R (TK-),>50 µg/mL
CCCCC#Cc1c[nH]c(=O)[nH]c1=O,plaque count,07/1,>400 µM
Nc1nc2c(ncn2COC(CO)CO)c(=O)[nH]1,cytopathic effect,OKA (WILD TYPE),1.3 µM
CCCCCCCOCCc1cc2cn([C@H]3C[C@H](O)[C@@H](CO)O3)c(=O)nc2o1,plaque count,OKA,17 µM
CC1(C)[C@@H](CCO)C[C@H]1n1cnc2c(=O)[nH]cnc21,plaque count,(TK-)07/1,>50 µg/mL
CCCOc1ccc(-c2cc3cn([C@H]4C[C@H](O)[C@@H](CO)O4)c(=O)nc3o2)cc1,cytopathic effect,YS,<0.5 µM
Nc1ncnc2c1ncn2C[C@@H](CO)OCP(=O)(O)O,plaque count,YS (TK+),0.11 µM
COc1ccc(CSCc2cnc3c(Br)cc(Br)c(C)n23)cc1,plaque count,07/1 (TK-),>20 µg/mL
Nc1nc2c(ncn2CC(CO)CCO)c(=O)[nH]1,cytopathic effect / ELISA,9/84-C,>100 µM
Nc1ncnc2c1ncn2C[C@@H](CO)OCP(=O)(O)O,cytopathic effect,OKA,0.004 µg/mL
O=c1nc2oc(CCOC3CCCCO3)cc2cn1[C@H]1C[C@H](O)[C@@H](CO)O1,plaque count,YS/R (TK-),>40 µM
Cc1c(Br)cc(Br)c2ncc(CSCc3ccc(Cl)c(Cl)c3)n12,plaque count,07/1 (TK-),2.8 µg/mL
Cc1cc([C@@H]2C[C@H](O)[C@@H](CO)O2)c(F)cc1F,plaque count,(TK-)07/1,>200 µM
COc1ccc(-c2cc3cn([C@H]4C[C@H](O)[C@@H](CO)O4)c(=O)nc3o2)cc1,cytopathic effect,OKA,<0.5 µM
OC[C@H]1O[C@@H](c2cc(C(O)CBr)c(F)cc2F)C[C@@H]1O,plaque count,OKA (TK+),>20 µg/mL
O=c1[nH]c(=O)n([C@H]2C[C@H](O)[C@@H](CO)O2)cc1/C=C/Br,cytopathic effect,YS,0.006 µg/mL
O=C(O)P(=O)(O)O,cytopathic effect,Clinical isolate VZV-5,91.3 µM
CC1(C)[C@@H](CO)CC[C@@]1(C)Cn1cnc2c(=O)[nH]cnc21,cytopathic effect,YS/R (TK-),>50 µg/mL
Nc1nc2c(ncn2C[C@@H](CO)CCO)c(=O)[nH]1,cytopathic effect / ELISA,9/84,0.7 µM
Nc1ncnc2c1ncn2[C@@H]1O[C@H](CO)[C@H]1CO,plaque count,TK+/YS,28 µg/mL
Nc1ncnc2nn(C[C@@H](CO)OCP(=O)(O)O)nc12,cytopathic effect,YS (TK+),>100 µg/mL
CC1(C)[C@@H](CCO)C[C@H]1n1nnc2c(N)nc(N)nc21,plaque count,(TK-)07/1,>20 µg/mL
C[C@H](Cn1nc2ncnc(N)c2n1)OCP(=O)(O)O,cytopathic effect,YS/R (TK-),5 µg/mL
Nc1nc2c(ncn2COC2COP(=O)(O)OC2)c(=O)[nH]1,cytopathic effect / ELISA,9/84 + PER + ULF + BIR + Y,8.2 µM
COc1nc(=O)n([C@H]2C[C@H](O)[C@@H](CO)O2)cc1/C=C/Cl,plaque count,YS,2 µg/mL
O=c1[nH]c(=O)n([C@H]2C[C@H](O)[C@@H](CO)O2)cc1/C=C/Cl,plaque count,07/1 (TK-),>138 µM
Cc1cn(CCCC(O)CF)c(=O)[nH]c1=O,cytopathic effect,YS/R (TK-),>50 µg/mL
O=C1OC(C(O)Cn2cc(F)c(=O)[nH]c2=O)C(OCc2ccccc2)=C1OCc1ccccc1,,TK-,>50 µg/mL
O=C(O)P(=O)(O)O,cytopathic effect / ELISA,9/84,147 µM
O=c1nc2oc(CCCOc3ccccc3)cc2cn1[C@H]1C[C@H](O)[C@@H](CO)O1,plaque count,(TK-)07/1,>200 µM
CCCCCCCCCCc1cc2cn([C@H]3C[C@H](O)[C@@H](CO)O3)c(=O)nc2o1,plaque count,OKA,0.015 µM
Cc1c(Br)cc(Br)c2ncc(CSC(C)c3cccs3)n12,plaque count,OKA (TK+),>2 µg/mL
CN1c2ccc(Cl)cc2C(C)(C)C12C=Cc1c(ccc3ccccc13)O2,plaque count,OKA (TK+),>44.2 µM
Nc1nc(=O)n([C@H]2C[C@H](O)[C@@H](CO)O2)cc1/C=C/Cl,plaque count,OKA,0.02 µg/mL
OC[C@H]1O[C@H](c2cc(I)c(F)cc2F)C[C@@H]1O,plaque count,(TK-)07/1,>200 µM
CCCCCCCCCCC#Cc1c[nH]c(=O)[nH]c1=O,plaque count,07/1,>16 µM
O=C(O)P(=O)(O)O,plaque count,13 isolates,84.7 µM
CCCCOc1ccc(-c2cc3cn([C@H]4C[C@H](O)[C@@H](CO)O4)c(=O)nc3o2)cc1,cytopathic effect,07/1 (TK-),>50 µM
CCc1ccc(OCCCc2cc3cn([C@H]4C[C@H](O)[C@@H](CO)O4)c(=O)nc3o2)cc1,plaque count,(TK+)/OKA,3.2 µM
COc1cc(F)c([C@H]2C[C@H](O)[C@@H](CO)O2)cc1[N+](=O)[O-],plaque count,TK+/YS,>200 µM
COC(=O)C(C)(C)NP(=O)(OC[C@H]1O[C@@H](n2cc(/C=C/Br)c(=O)[nH]c2=O)C[C@@H]1O)Oc1ccccc1,cytopathic effect,YS,11 µM
Nc1cc([C@H]2C[C@H](O)[C@@H](CO)O2)c(F)cc1F,plaque count,(TK+)/OKA,>200 µM
CCCCCCCc1cc2cnc(=O)[nH]c2o1,plaque count,07/1,>80 µM
Nc1nc2c(ncn2[C@@H]2C[C@H](CO)[C@H]2CO)c(=O)[nH]1,plaque count,TK+/YS,0.09 µg/mL
CCCCCCCCc1cc2cnc(=O)[nH]c2o1,plaque count,07/1,>80 µM
O=C1OC(C(O)Cn2cc(C(F)(F)F)c(=O)[nH]c2=O)C(OCc2ccccc2)=C1OCc1ccccc1,,TK-,>50 µg/mL
COC(=O)[C@H](C)NP(=O)(OC[C@H]1O[C@@H](n2cc(/C=C/Br)c(=O)[nH]c2=O)C[C@@H]1O)Oc1ccc(Cl)cc1,cytopathic effect,OKA,0.07 µM
CN1c2ccc([N+](=O)[O-])cc2C(C)(C)C12C=Cc1cc([N+](=O)[O-])ccc1O2,plaque count,07/1 (TK-),1.1 µM
OC[C@H]1O[C@@H](c2cc(I)c(F)cc2F)C[C@@H]1O,plaque count,(TK-)/YS/R,>200 µM
CCCCCCCCCCC#Cc1cn(S(=O)(=O)c2ccc(C)cc2)c(=O)[nH]c1=O,plaque count,07/1,27 µM
Nc1nc2c(ncn2CCC(CO)CO)c(=O)[nH]1,cytopathic effect,Clinical isolate VZV-20,3.22 µM
OC[C@H]1O[C@@H](c2cc(C(O)C(Br)Br)c(F)cc2F)C[C@@H]1O,plaque count,OKA (TK+),>200 µg/mL
Cc1cccc(CSCc2cnc3c(Br)cc(Br)c(C)n23)c1,plaque count,OKA (TK+),4.9 µg/mL
Nc1ccn(C(CF)CCCO)c(=O)n1,cytopathic effect,YS,>50 µg/mL
O=c1[nH]c(=O)c2ncn([C@@H]3O[C@H](CO)[C@H]3CO)c2[nH]1,plaque count,(TK-)/YS/R,176 µg/mL
OC[C@H]1O[C@@H](c2cc(C(F)(F)F)c(F)cc2F)C[C@@H]1O,plaque count,(TK-)07/1,>200 µM
CC#Cc1cn([C@@H]2O[C@H](CO)[C@@H](O)[C@@H]2O)c(=O)[nH]c1=O,plaque count,OKA (TK+),0.18 µM
CN1c2ccccc2C(C)(C)C12C=Cc1cc([N+](=O)[O-])ccc1O2,plaque count,OKA (TK+),3.6 µM
CC1(C)[C@@H](CCO)C[C@H]1n1nnc2c(=O)[nH]cnc21,plaque count,(TK+)/OKA,>20 µg/mL
O=C(O)CP(=O)(O)O,cytopathic effect,Oka CF1368-resistant,50 µM
Nc1ncnc2c1ncn2CCCC(O)CF,cytopathic effect,OKA,>50 µg/mL
COc1ccc2c(c1)OC1(C=C2)N(C)c2ccccc2C1(C)C,plaque count,OKA (TK+),6 µM
O=c1nc2oc(CCCSc3ccccc3)cc2cn1[C@H]1C[C@H](O)[C@@H](CO)O1,plaque count,(TK+)/OKA,0.9 µM
Cc1cc([C@H]2C[C@H](O)[C@@H](CO)O2)c(F)cc1Cl,plaque count,TK+/YS,>200 µM
O=c1[nH]c(=O)n([C@@H]2O[C@H](CO)[C@@H](O)[C@@H]2O)cc1/C=C/Br,plaque count,07/1 (TK-),>57 µM
CC1(C)[C@@H](CO)CC[C@@]1(C)Cn1nnc2c(N)ncnc21,cytopathic effect,YS,>50 µg/mL
O=C1O/C(=C\Cn2cc(C(F)(F)F)c(=O)[nH]c2=O)C(O)=C1O,,TK+,>50 µg/mL
O=c1nc2oc(CCCC3OCCO3)cc2cn1[C@H]1C[C@H](O)[C@@H](CO)O1,plaque count,07/1 (TK-),>200 µM
Nc1ncnc2nn(C[C@@H](CF)OCP(=O)(O)O)nc12,cytopathic effect,YS/R (TK-),>10 µg/mL
OC[C@H]1O[C@@H](c2ccc(F)cc2F)C[C@@H]1O,plaque count,(TK-)/YS/R,>200 µM
NC1=NC2C(C=CN2CC(CO)CCO)C(=O)N1,plaque count,13 isolates,0.02 µM
CCCCCC#Cc1cn(S(=O)(=O)c2ccc(C)cc2)c(=O)[nH]c1=O,plaque count,07/1,>16 µM
O=C(O)CP(=O)(O)O,plaque count,OKA (TK+),51.4 µM
CC1(C)[C@@H](CO)CC[C@@]1(C)Cn1cnc2c(Cl)ncnc21,cytopathic effect,YS,>50 µg/mL
Nc1nc2c(ncn2COCCO)c(=O)[nH]1,plaque count,OKA (TK+),0.8 µM
C[C@H](Cn1nc2nc(N)[nH]c(=O)c2n1)OCP(=O)(O)O,cytopathic effect,YS/R (TK-),>20 µg/mL
CCCCCOc1ccc(-c2cc3cn([C@H]4C[C@H](O)[C@@H](CO)O4)c(=O)nc3o2)cc1,cytopathic effect,07/1 (TK-),>50 µM
O=[N+]([O-])c1cc([C@H]2C[C@H](O)[C@@H](CO)O2)c(F)cc1F,plaque count,(TK-)07/1,72 µM
C[C@H](Cn1nnc2c(N)ncnc21)OCP(=O)(O)O,cytopathic effect,YS/R (TK-),8 µg/mL
CCCCCCCCC#Cc1c[nH]c(=O)[nH]c1=O,plaque count,07/1,16 µM
CC1(C)[C@@H](CCO)C[C@H]1n1cnc2c(N)nc(N)nc21,plaque count,(TK-)07/1,50 µg/mL

Repeating the first 10 entries:

SMILES,method,strain or isolate,result
O=c1[nH]c(=O)n([C@H]2C[C@H](O)[C@@H](CO)O2)cc1-c1ccc(Br)s1,plaque count,YS (TK+),0.108 µM
CC1(C)[C@@H](CO)CC[C@@]1(C)Cn1ccc(=O)[nH]c1=O,cytopathic effect,YS/R (TK-),>50 µg/mL
CCCCC#Cc1c[nH]c(=O)[nH]c1=O,plaque count,07/1,>400 µM
Nc1nc2c(ncn2COC(CO)CO)c(=O)[nH]1,cytopathic effect,OKA (WILD TYPE),1.3 µM
CCCCCCCOCCc1cc2cn([C@H]3C[C@H](O)[C@@H](CO)O3)c(=O)nc2o1,plaque count,OKA,17 µM
CC1(C)[C@@H](CCO)C[C@H]1n1cnc2c(=O)[nH]cnc21,plaque count,(TK-)07/1,>50 µg/mL
CCCOc1ccc(-c2cc3cn([C@H]4C[C@H](O)[C@@H](CO)O4)c(=O)nc3o2)cc1,cytopathic effect,YS,<0.5 µM
Nc1ncnc2c1ncn2C[C@@H](CO)OCP(=O)(O)O,plaque count,YS (TK+),0.11 µM
COc1ccc(CSCc2cnc3c(Br)cc(Br)c(C)n23)cc1,plaque count,07/1 (TK-),>20 µg/mL
Nc1nc2c(ncn2CC(CO)CCO)c(=O)[nH]1,cytopathic effect / ELISA,9/84-C,>100 µM

ECn: concentration that inhibits the pathogen or its effect by n%. An empty or dashed field is not shown.